# Values quoted from earlier work as cited in article PMC4000213 (PLoS ONE, 2014).
# System: BoNT/A / LcA
# Conditions: cited from earlier work
substance,measurement,value
zinc chloride [ZnCl2],effect of ZnCl2 on solubilized LcA activity,inhibited by increasing concentrations
